Anti-infective test results gathered from many reports (values: NIAID ChemDB through PubChem).

Shared fields: growth or infection tests; organism: Mycobacterium avium complex; endpoint: MIC

Lines come from different laboratories, so protocols vary. Two numbers with a dash give a range or band.

SMILES	strain or isolate	value
CC[C@H]1OC(=O)[C@H](C)[C@@H](O)[C@H](C)[C@@H](O[C@@H]2O[C@H](C)C[C@H](N(C)C)[C@H]2O)C(C)(O)C[C@@H](C)/C(=N\OCCCOc2ccccc2)[C@H](C)[C@@H](O)[C@]1(C)O	20096 (clarithromycin-resistant)	>50 µg/mL
Cc1ccc(CSc2nc(=O)[nH]c3nc[nH]c23)cc1	NJ211	>12.8 µg/mL
C[C@@H]1CN(c2c(F)c(N)c3c(=O)c(C(=O)O)cn(C4CC4)c3c2F)C[C@H](C)N1	N-325 (HIV-)	0.5 µg/mL
CCCCCCCCO/N=C1\[C@H](C)CC(C)(O)[C@H](O[C@@H]2O[C@H](C)C[C@H](N(C)C)[C@H]2O)[C@@H](C)[C@H](OC2C[C@@](C)(OC)[C@@H](O)[C@H](C)O2)[C@@H](C)C(=O)O[C@H](CC)[C@@](C)(O)[C@H](O)[C@H]1C	20092	25 µg/mL
CC[C@H]1OC(=O)[C@H](C)[C@@H](O[C@H]2C[C@@](C)(OC)[C@@H](OC(C)=O)[C@H](C)O2)[C@H](C)[C@@H](O[C@@H]2O[C@H](C)C[C@H](N(C)C)[C@H]2OC(=O)NNCc2ccc(OC)cc2)C(C)(O)C[C@@H](C)/C(=N\OCCCC2CCCCC2)[C@H](C)[C@@H](O)[C@]1(C)O	20092 (clarithromycin-resistant)	0.78 µg/mL
CC[C@H]1OC(=O)[C@H](C)[C@@H](OC2C[C@@](C)(OC)[C@@H](O)[C@H](C)O2)[C@H](C)[C@@H](O[C@@H]2O[C@H](C)C[C@H](N(C)C)[C@H]2O)C(C)(O)C[C@@H](C)/C(=N\OCCN(C)c2ccccc2)[C@H](C)[C@@H](O)[C@]1(C)O	20096	25 µg/mL
CCCCCSc1ncnc2nc[nH]c12	NJ211	>12.8 µg/mL
CCCO/N=C1\[C@H](C)CC(C)(O)[C@H](O[C@@H]2O[C@H](C)C[C@H](N(C)C)[C@H]2O)[C@@H](C)[C@H](O[C@H]2C[C@@](C)(OC)[C@@H](OC(C)=O)[C@H](C)O2)[C@@H](C)C(=O)O[C@H](CC)[C@@](C)(O)[C@H](O)[C@H]1C	20096 (clarithromycin-resistant)	>50 µg/mL
NNC(=O)c1ccncc1	13022	0.63–1.6 µg/mL
CC1(C)N=C(N)N=C(N)N1OCCCOc1cc(Cl)c(Cl)cc1Cl	3176	1 µg/mL
C/C(=N\NC(N)=S)c1cccnc1	101	0.5 µg/mL
CC[C@H]1OC(=O)[C@H](C)[C@@H](OC2C[C@@](C)(OC)[C@@H](O)[C@H](C)O2)[C@H](C)[C@@H](O[C@@H]2O[C@H](C)C[C@H](N(C)C)[C@H]2O)C(C)(O)C[C@@H](C)/C(=N\OCCCC2CCCCC2)[C@H](C)[C@@H](O)[C@]1(C)O	20092 (clarithromycin-resistant)	12.5 µg/mL
Clc1nc(Sc2ncc[nH]2)c2[nH]cnc2n1	NJ211	>12.8 µg/mL
CC[C@H]1OC(=O)[C@H](C)[C@@H](OC2C[C@@](C)(OC)[C@@H](O)[C@H](C)O2)[C@H](C)[C@@H](O[C@@H]2O[C@H](C)C[C@H](N(C)C)[C@H]2O)C(C)(O)C[C@@H](C)/C(=N\OCCCCc2ccccc2)[C@H](C)[C@@H](O)[C@]1(C)O	20039	1.56 µg/mL
c1ccc(CSc2ccccn2)cc1	NJ211	>12.8 µg/mL
CC[C@H]1OC(=O)[C@H](C)[C@@H](O[C@H]2C[C@@](C)(OC)[C@@H](OC(C)=O)[C@H](C)O2)[C@H](C)[C@@H](O[C@@H]2O[C@H](C)C[C@H](N(C)C)[C@H]2OC(=O)NNCCCCc2ccccc2)C(C)(O)C[C@@H](C)/C(=N\OCCCC2CCCCC2)[C@H](C)[C@@H](O)[C@]1(C)O	20096 (clarithromycin-resistant)	3.13 µg/mL
CC1(C)N=C(N)N=C(N)N1OCCCOc1cc(Cl)c(Cl)cc1Cl	DW27	2 µg/mL
CCCCCCCCCCC(=O)O[C@H]1[C@H](C)OC(O[C@H]2[C@H](C)[C@@H](O[C@@H]3O[C@H](C)C[C@H](N(C)C)[C@H]3O)C(C)(O)C[C@@H](C)/C(=N\OCCCOc3ccccc3)[C@H](C)[C@@H](O)[C@](C)(O)[C@@H](CC)OC(=O)[C@@H]2C)C[C@@]1(C)OC	20092 (clarithromycin-resistant)	>50 µg/mL
CO[C@H]1/C=C/O[C@@]2(C)Oc3c(C)c(O)c4c(O)c(c5c(c4c3C2=O)NC2(CCN(CC(C)C)CC2)N=5)=NC(=O)/C(C)=C\C=C\[C@H](C)[C@H](O)[C@@H](C)[C@@H](O)[C@@H](C)[C@H](OC(C)=O)[C@@H]1C	N-981 (HIV+)	0.25 µg/mL
CCCCCCCCCCCCCCO/N=C1\[C@H](C)CC(C)(O)[C@H](O[C@@H]2O[C@H](C)C[C@H](N(C)C)[C@H]2O)[C@@H](C)[C@H](OC2C[C@@](C)(OC)[C@@H](O)[C@H](C)O2)[C@@H](C)C(=O)O[C@H](CC)[C@@](C)(O)[C@H](O)[C@H]1C	20092	>50 µg/mL
CO[C@H]1/C=C/O[C@@]2(C)Oc3c(C)c(O)c4c(O)c(c5c(c4c3C2=O)NC2(CCN(CC(C)C)CC2)N=5)=NC(=O)/C(C)=C\C=C\[C@H](C)[C@H](O)[C@@H](C)[C@@H](O)[C@@H](C)[C@H](OC(C)=O)[C@@H]1C	F	0.5 µg/mL
CC[C@H]1OC(=O)[C@H](C)[C@@H](O[C@H]2C[C@@](C)(OC)[C@@H](O)[C@H](C)O2)[C@H](C)[C@@H](O[C@@H]2O[C@H](C)C[C@H](N(C)C)[C@H]2O)[C@](C)(O)C[C@@H](C)/C(=N\OC)[C@H](C)[C@@H](O)[C@]1(C)O	20039	3.13 µg/mL
Clc1ccccc1Sc1ncnc2nc[nH]c12	NJ211	>12.8 µg/mL
CO[C@H]1/C=C/O[C@@]2(C)Oc3c(C)c(O)c4c(=O)c(c5oc6cc(N7CCN(CC(C)C)CC7)cc(=O)c6nc5c4c3=C2O)NC(=O)/C(C)=C\C=C\[C@H](C)[C@H](O)[C@@H](C)[C@@H](O)[C@@H](C)[C@H](OC(C)=O)[C@@H]1C	N-951 (HIV+)	0.05 µg/mL
CC[C@H]1OC(=O)[C@H](C)[C@@H](OC2C[C@@](C)(OC)[C@@H](O)[C@H](C)O2)[C@H](C)[C@@H](O[C@@H]2O[C@H](C)C[C@H](N(C)C)[C@H]2O)C(C)(O)C[C@@H](C)/C(=N\OCCC2CCCCC2)[C@H](C)[C@@H](O)[C@]1(C)O	20039	3.13 µg/mL
CC[C@H]1OC(=O)[C@H](C)[C@@H](O[C@H]2C[C@@](C)(OC)[C@@H](O)[C@H](C)O2)[C@H](C)[C@@H](O[C@@H]2O[C@H](C)C[C@H](N(C)C)[C@H]2O)[C@](C)(OC)C[C@@H](C)C(=O)[C@H](C)[C@@H](O)[C@]1(C)O	N-289 (HIV-)	0.5 µg/mL
CC[C@H]1OC(=O)[C@H](C)[C@@H](OC2C[C@@](C)(OC)[C@@H](O)[C@H](C)O2)[C@H](C)[C@@H](O[C@@H]2O[C@H](C)C[C@H](N(C)C)[C@H]2O)C(C)(O)C[C@@H](C)/C(=N\OCCSc2ccccc2)[C@H](C)[C@@H](O)[C@]1(C)O	20039	1.56 µg/mL
CC[C@H]1OC(=O)[C@H](C)[C@@H](OC(=O)Cc2ccccn2)[C@H](C)[C@@H](O[C@@H]2O[C@H](C)C[C@H](N(C)C)[C@H]2O)C(C)(O)C[C@@H](C)/C(=N\OCCCOc2ccccc2)[C@H](C)[C@@H](O)[C@]1(C)O	20039 (clarithromycin-susceptible)	3.13 µg/mL
CCCCCCCCCCCCCCCCO/N=C1\[C@H](C)CC(C)(O)[C@H](O[C@@H]2O[C@H](C)C[C@H](N(C)C)[C@H]2O)[C@@H](C)[C@H](OC2C[C@@](C)(OC)[C@@H](O)[C@H](C)O2)[C@@H](C)C(=O)O[C@H](CC)[C@@](C)(O)[C@H](O)[C@H]1C	20096	>50 µg/mL
CCCCCCCCO/N=C1\[C@H](C)CC(C)(O)[C@H](O[C@@H]2O[C@H](C)C[C@H](N(C)C)[C@H]2O)[C@@H](C)[C@H](O[C@H]2C[C@@](C)(OC)[C@@H](OC(C)=O)[C@H](C)O2)[C@@H](C)C(=O)O[C@H](CC)[C@@](C)(O)[C@H](O)[C@H]1C	20092 (clarithromycin-resistant)	1.56 µg/mL

Repeating the final 2 entries:

SMILES	strain or isolate	value
CCCCCCCCCCCCCCCCO/N=C1\[C@H](C)CC(C)(O)[C@H](O[C@@H]2O[C@H](C)C[C@H](N(C)C)[C@H]2O)[C@@H](C)[C@H](OC2C[C@@](C)(OC)[C@@H](O)[C@H](C)O2)[C@@H](C)C(=O)O[C@H](CC)[C@@](C)(O)[C@H](O)[C@H]1C	20096	>50 µg/mL
CCCCCCCCO/N=C1\[C@H](C)CC(C)(O)[C@H](O[C@@H]2O[C@H](C)C[C@H](N(C)C)[C@H]2O)[C@@H](C)[C@H](O[C@H]2C[C@@](C)(OC)[C@@H](OC(C)=O)[C@H](C)O2)[C@@H](C)C(=O)O[C@H](CC)[C@@](C)(O)[C@H](O)[C@H]1C	20092 (clarithromycin-resistant)	1.56 µg/mL